Measured values taken from ChEMBL document CHEMBL4732113, “Exploiting the tolerant region I of the non-nucleoside reverse transcriptase inhibitor (NNRTI) binding pocket. Part 2: Discovery of diarylpyrimidine derivatives as potent HIV-1 NNRTIs with high Fsp values and favorable drug-like properties” (Eur J Med Chem, 2021).

Assay: Selectivity index, ratio of CC50 for human MT4 cells to EC50 for antiviral activity against HIV HIV1 RES056 harboring K103N/Y181C double mutant infected in human MT4 cells
Type: toxicity, cell-based
Conditions: read-out: Ratio CC50/EC50

Structure (SMILES): Cc1cc(C#N)cc(C)c1Oc1nc(Nc2ccc(C#N)cc2)nc(N)c1Br [ETRAVIRINE]
- selectivity ratio: > 76
